Data reported in US20260232678A1, “Nasal Spray for Phosphodiesterase Inhibitors” (Cyrano Therapeutics, Inc., priority 2022, published 2026).

System: patient who had loss of taste and smell from COVID-19
Details: 80 μg theophylline intranasal once per day, 3 months

SMILES: Cn1c(=O)c2[nH]cnc2n(C)c1=O [Theophylline, theophylline]
- side effects: No side effects
